Pooled drug test results. Numbers come from NIAID ChemDB, via PubChem.

Shared fields: growth or infection tests; organism: HIV-1; cell line: 293T; read-out: EC50

An empty or dashed field is not shown. Rows are shuffled and stem from different studies. ECn: concentration that inhibits the pathogen or its effect by n%.

{"smiles": "Nc1c(C(=O)NCc2ccc(F)cc2F)c(=O)n(O)c2ncc(CCCCCCO)cc12", "changes": "P142S", "method": "luciferase", "setting": "pseudotyped", "result": "0.0012 µM"}
{"smiles": "COc1cccc(C(=O)[C@@H]2[C@@H](c3ccc(F)cc3)[C@](C#N)(C(N)=O)[C@H]3CCc4cc(C)ccc4N23)c1", "method": "luciferase", "result": "17.7 µM"}
{"smiles": "CC(C)=CCC[C@](C)(O)[C@@H]1CC=C(C)[C@@H]2CC=C(C)[C@H]2[C@@H]1O", "method": "luciferase", "setting": "pseudotyped", "result": ">30 µM"}
{"smiles": "CS[C@@]12CC3C(=O)CC[C@H](O)[C@H]3N1C(=O)[C@@]13C[C@H]4C(=O)C[C@@H](S1)[C@H](O)[C@H]4N3C2=O", "strain": "NL4-3", "method": "luciferase / luminescence", "result": "16.6 µM"}
{"smiles": "CS[C@@]1(Cc2ccccc2)NC(=O)[C@@](Cc2ccccc2O)(SC)NC1=O", "strain": "NL4-3", "method": "ELISA", "result": "4.9 µM"}
{"smiles": "COc1cccc(C(=O)[C@@H]2[C@@H](c3ccc4c(OC)c(C)c(OC)cc4c3)[C@](C#N)(C(N)=O)[C@H]3CCc4cc(C)ccc4N23)c1", "method": "luciferase", "result": ">60 µM"}
{"smiles": "Cc1cn([C@H]2C[C@H](N=[N+]=[N-])[C@@H](CO)O2)c(=O)[nH]c1=O", "method": "luciferase", "result": "0.03 µM"}
{"smiles": "CCO[C@H]1O[C@H](OCC)C2/C1=C\\C/C=C(\\C)C[C@@H](O)[C@H]2[C@H](C)CCC=C(C)C", "method": "luciferase", "setting": "pseudotyped", "result": ">30 µM"}
{"smiles": "COc1cccc(C(=O)C2C(c3ccc(Cl)cc3)C(C#N)(C(N)=O)C3CCc4cc(C)ccc4N23)c1", "method": "luciferase", "result": "12 µM"}
{"smiles": "CC(=O)[C@H]1/C=C(\\C)CC/C=C(\\C)C(=O)C[C@@H]2[C@]1(C)CC[C@@]2(O)C(C)C", "method": "luciferase", "setting": "pseudotyped", "result": ">30 µM"}
{"smiles": "CS[C@@]12CC3C(=O)CC[C@H](O)[C@H]3N1C(=O)[C@@]13C[C@@H]4[C@@H]([C@@H](O)C=C[C@@H]4S1)N3C2=O", "strain": "NL4-3", "method": "luciferase / luminescence", "result": "13.3 µM"}
{"smiles": "C=C1[C@H](O)C[C@@H]([C@@](C)(O)CCC=C(C)C)[C@@H](O)[C@@H]2C(C)=CC[C@@H]12", "method": "luciferase", "setting": "pseudotyped", "result": ">30 µM"}
{"smiles": "CO[C@@]1(Cc2ccccc2)NC(=O)[C@](O)(Cc2ccccc2)NC1=O", "strain": "NL4-3", "method": "luciferase / luminescence", "result": ">20 µM"}
{"smiles": "CC(C)=CCC[C@@H](C)[C@@H]1CC[C@@]2(C)O[C@@H]1[C@@H]1C(C)=C[C@@H](O)[C@H]12", "method": "luciferase", "setting": "pseudotyped", "result": ">30 µM"}
{"smiles": "COc1cccc(C(=O)[C@@H]2[C@@H](c3ccc(C#N)cc3)[C@](C#N)(C(N)=O)[C@H]3CCc4cc(C)ccc4N23)c1", "method": "luciferase", "result": ">60 µM"}
{"smiles": "CS[C@@]12CC3C(=O)CC[C@H](O)[C@H]3N1C(=O)[C@@]13C[C@@H]4[C@@H]([C@@H](O)[C@@H](C[C@@H]4O)S1)N3C2=O", "strain": "NL4-3", "method": "luciferase / luminescence", "result": "18.2 µM"}

For reference, 2 entries again:

| smiles | strain | changes | method | setting | result |
|---|---|---|---|---|---|
| CO[C@@]1(Cc2ccccc2)NC(=O)[C@](O)(Cc2ccccc2)NC1=O | NL4-3 | - | luciferase / luminescence | - | >20 µM |
| COc1cccc(C(=O)[C@@H]2[C@@H](c3ccc(C#N)cc3)[C@](C#N)(C(N)=O)[C@H]3CCc4cc(C)ccc4N23)c1 | - | - | luciferase | - | >60 µM |